Experimental data published in the supplement of paper PMC9931576.
Human monoclonal antibodies against the spike receptor-binding domain (heavy:light variable regions). IC50 against pseudoviruses bearing the spike of naturally observed variants; lower = stronger; >10 µg/ml means not reached at the top dose. No active / inactive call. The stated detection limit is 0.0005 µg/ml; values near or below 0.001 µg/ml lie at the floor of the assay.

B1: BD56-1624 (protein)
chain 1: EVQLVESGGGLVQPGGSLRLSCVASGFTFSTYDMHWVRQAPGKGLEWVSAIGTAGDTYYPGSVKGRFTISRENAKNSLYLQMNSLRAGDTAVYYCARGVFDTAMVRGWFDPWGQGTLVTVSS
chain 2: DIQMTQSPSSLSASVGTRVTITCRASQTISNYLNWYQQKPGKAPKLLIYTASSLQSGVPSRFSGSGSGTDFTLTISSLQPEDFATYYCQQSYSIPPWTFGQGTKLEIK
B2: BD56-1632 (protein)
chain 1: QVQLRESGPGLVKPSQTLSLMCTVSGGSIVSGTYFWNWIRQPAGKGLEWIGRIYTSGSTDYNPSLRSRVTISVDTSKNQFSLRLSSVTAADTAVYYCAREDSSGWYTGDTLDLWGQGTMVTVSS
chain 2: DIQMTQSPLSLSASVGDRVTITCRASQSISRYLNWFQQIPGKAPKLLIYAANSLQGAVPSRFSGDGSGTDFTLTISSLQPEDFATYFCQQSYSPPWTFGQGTKVEIK
B3: BD56-1631 (protein)
chain 1: QVQLVESGGGVVQPGKSLRLSCTDSGFNFSNSAFHWVRQAPGKGLEWVAVISSHGTDTYYADSVEGRFTISRDQSRNTLYLQMSSLRTEDTAVYYCARGLKVPGVIGEAYYYYGMDVWGQGTTVAVSS
chain 2: DIQMTQSPSSVSASVGDRVTITCRASQGISSWLAWYQQKPGKAPKLLIYDASLLQSGVPSRFSGSGSGTDFTLTISSVQPEDFATYSCQQTLIFPWTFGQGTKVEIK
B4: BD56-1636 (protein)
chain 1: EVQLVESGRGLVQPGGSLRLSCAASGFTFSSYDMHWVRQATGRGLEWVSAIGTAGDTYYRDSVKGRFTISRDDAKNSLYLQMKSLRAGDTAVYYCARGGWGPLASWYFDLWGRGTLVTVSS
chain 2: DIQMTQSPSSLSASVGDRVTITCRSSQSISKFLNWYQYKPGTAPKLLIYDASSLHSGVPSRFSGSGSGTDFTLTIGSLQPEDFAIYYCQQTYTMPPPTFGQGTRLEIK
B5: BD56-1639 (protein)
chain 1: EVQLVQSGAEVKKPGDSLKISCKGSGYSFISYWIGWVRQVPGKGLEWIGIIYPGDSDSTYSPSFQGQVTMSADKSISTAFLQWSSLRASDTAMYYCARRSSSWNEFDFWGQGTLVTVSS
chain 2: DIQMTQSPSSLSASVGDRVTITCRASQSISSYLNWFQQKPGKVPKLLIYAASSLQSGVPSRFSGSGSGTDFALTISSLQPEDFATYYCQQSDSTPYTFGQGTKLEIK
B6: BD56-1630 (protein)
chain 1: EVQLVQSGAEVKKPGESLKISCKASGYSFISYWVGWVRQMPGKGLEWMGLIYPGDSDTRYSPSFQGHVTISADKSISTTYLQWSSLKASDTAMYYCARRDSSWNDFDLWGQGSLVTVSS
chain 2: DIQMTQSPSSLSASVGDSVTITCRASQTISSYLNWYQQKPGKAPKLLIYAASSLQSGVPSRFRGSGSGTDFTLTISSLQPEDFATYYCQESYSSLYTFGQGTKLDIK
B7: BD56-1626 (protein)
chain 1: QVQLVESGGGVVQPGRSLRLSCAASGFTFSHYGMHWVRQAAGKGLEWVAVILYDGSETYYADSVKGRFTISRDNSKNTLYLQMNRLRPEDTAVYYCAKVSGPYCGGGNCYSGYFDYWGQGSLVTVSS
chain 2: DIQMTQSPSTLSASVGDRVTITCRASQSVSTWLAWYQQKPGKAPKVLIYEASNLESGVPSRFSGSGSGTEFTLTISSLQPDDFATYYCQQYDTYSNTFGQGTKLEIK
B8: BD56-1646 (protein)
chain 1: QVQLAQSGPEVRKPGASVKVSCKASGYTFTSYGINWVRQAPGQGLEWMGWISTYSGDTNYAQKFQGRVTMTTDTSTSTVFMELRSLRADDTAFYYCARNEPGYCGGGSCYWLDPWGQGTLVTVSS
chain 2: EIVMTQSPATLSVSPGERATLSCWASQSVSNNLAWYQQKPGQAPRLLLYGASTRATGIPARFSGSGSGTDFTLTISSLQSEDFAVYFCLQYDNWPPVFTFGPGTKVDIK
B9: LY-CoV481 (protein)
chain 1: EVQLVESGGGLIQPGGSLRLSCAASGFTVSSNYMSWVRQAPGKGLEWVSVIYPGGSTFYADSVKGRFTISRDNSKNTLYLQMNSLRAEDTAVYYCAREVAGTYDYWGQGTLVTVSS
chain 2: DIQMTQSPSSVSASVGDRVTITCRASQGISSWLAWYQQKPGKAPKLLIYAASSLQSGVPSRFSGSGSGTDFTLTISSLQPEDFATYYCQQANSFPGGTFGPGTKVDIK
B10: BD56-1651 (protein)
chain 1: EIQLVQSGAEVRKPGESLKISCKGSGYSFTSYWIGWVRLLPGKGLEWMGTIYPRDSHTRYSPSFQGQVTISADKSISTAYLQWSSLKASDTATYYCARRGVIVPTAMFQYFDLWGRGTLVTVSS
chain 2: DIVMTQTPLSLPVTPGEPASISCRSSQSLLDSDDGNTYLDWYLQKPGQSPQLLIYSLSYRASGVPDRFSGSGSGTDFTLKISRVEAEDVGIYYCMQRIEFPFTFGPGTKVDIK
B11: BD56-1641 (protein)
chain 1: DVQLVESAGGLVQPGGSLRLSCAASGFTFSDYSMNWVRQAPGKGLEWVSFISSSSHTIYYADSVKGRFTISRDNAKNSLFLQMNSLRNEDTAVYYCARADLWGSDILTGYSTLLDYWGQGTLVTVSS
chain 2: EIVLTQSPGTLSLSPGERATLSCRASQSVSSTYIAWYQQKPGQAPRLLIYGASSRAAGIPDRFSGSGSGTDFTLTISTLEPEDFAVYYCQQCGSSPATFGQGTKVEIK
B12: BD56-1645 (protein)
chain 1: QVQLVQSGAEVKKPGSSVKVSCKASGGTFNSYGIAWVRQAPGRGLEWMGGVIPMFETTNYAQKFQGRVTITADESTSTAYMELTSLRSEDTAVYYCATDRPLLPAGRSPKSGYFDSWGQGTLVTVSS
chain 2: EIVLTQSPGTLSLSPGERASLSCRASQFVSSTYLAWYQQKPSQAPRLLIYGASSRATGIPDRFSGSGSGTDFTLTISRLEPEDFAVYYCQQYGNSFPITFGQGTRLEIK

biological target: SARS-CoV-2 Omicron BA.1 spike pseudovirus; test: pseudovirus neutralization IC50; higher = weaker neutralization
Protocol: (§1)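 Single-round VSV luciferase pseudovirus mixed with antibody dilutions for 1 h and put on Huh-7 cells for about a day; IC50 from the dose curve.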

Row | Binder | pseudovirus neutralization IC50
1 | B1 | > 10 µg/mL
2 | B2 | > 10 µg/mL
3 | B3 | 0.000908 µg/mL
4 | B4 | > 10 µg/mL
5 | B5 | > 10 µg/mL
6 | B6 | > 10 µg/mL
7 | B7 | > 10 µg/mL
8 | B8 | 1.08 µg/mL
9 | B9 | > 10 µg/mL
10 | B10 | > 10 µg/mL
11 | B11 | > 10 µg/mL
12 | B12 | > 10 µg/mL

biological target: SARS-CoV-2 Omicron BA.2 spike pseudovirus; test: as above
Protocol: as §1

Row | Binder | pseudovirus neutralization IC50
13 | B1 | > 10 µg/mL
14 | B2 | > 10 µg/mL
15 | B3 | 0.000548 µg/mL
16 | B4 | > 10 µg/mL
17 | B5 | > 10 µg/mL
18 | B6 | > 10 µg/mL
19 | B7 | > 10 µg/mL
20 | B8 | 2.74 µg/mL
21 | B9 | > 10 µg/mL
22 | B10 | > 10 µg/mL
23 | B11 | > 10 µg/mL
24 | B12 | > 10 µg/mL

biological target: SARS-CoV-2 Omicron BA.2.75 spike pseudovirus; test: as above
Protocol: as §1

Row | Binder | pseudovirus neutralization IC50
25 | B1 | > 10 µg/mL
26 | B2 | > 10 µg/mL
27 | B3 | 0.00121 µg/mL
28 | B4 | > 10 µg/mL
29 | B5 | > 10 µg/mL
30 | B6 | > 10 µg/mL
31 | B7 | > 10 µg/mL
32 | B8 | 1.19 µg/mL
33 | B9 | > 10 µg/mL
34 | B10 | > 10 µg/mL
35 | B11 | > 10 µg/mL
36 | B12 | > 10 µg/mL

biological target: SARS-CoV-2 Omicron BA.5 spike pseudovirus; test: as above
Protocol: as §1

Row | Binder | pseudovirus neutralization IC50
37 | B1 | > 10 µg/mL
38 | B2 | > 10 µg/mL
39 | B3 | > 10 µg/mL
40 | B4 | > 10 µg/mL
41 | B5 | > 10 µg/mL
42 | B6 | > 10 µg/mL
43 | B7 | > 10 µg/mL
44 | B8 | 0.837 µg/mL
45 | B9 | > 10 µg/mL
46 | B10 | > 10 µg/mL
47 | B11 | > 10 µg/mL
48 | B12 | > 10 µg/mL

biological target: SARS-CoV-2 Omicron BQ.1.1 spike pseudovirus; test: as above
Protocol: as §1

Row | Binder | pseudovirus neutralization IC50
49 | B1 | > 10 µg/mL
50 | B2 | > 10 µg/mL
51 | B3 | > 10 µg/mL
52 | B4 | > 10 µg/mL
53 | B5 | > 10 µg/mL
54 | B6 | > 10 µg/mL
55 | B7 | > 10 µg/mL
56 | B8 | 2.72 µg/mL
57 | B9 | > 10 µg/mL
58 | B10 | > 10 µg/mL
59 | B11 | > 10 µg/mL
60 | B12 | > 10 µg/mL

biological target: SARS-CoV-2 Omicron XBB spike pseudovirus; test: as above
Protocol: as §1

Row | Binder | pseudovirus neutralization IC50
61 | B1 | > 10 µg/mL
62 | B2 | > 10 µg/mL
63 | B3 | > 10 µg/mL
64 | B4 | > 10 µg/mL
65 | B5 | > 10 µg/mL
66 | B6 | > 10 µg/mL
67 | B7 | > 10 µg/mL
68 | B8 | 2.98 µg/mL
69 | B9 | > 10 µg/mL
70 | B10 | > 10 µg/mL
71 | B11 | > 10 µg/mL
72 | B12 | > 10 µg/mL

biological target: SARS-CoV-2 early D614G spike pseudovirus; test: as above
Protocol: as §1

Row | Binder | pseudovirus neutralization IC50
73 | B1 | > 10 µg/mL
74 | B2 | 2.4 µg/mL
75 | B3 | 0.00252 µg/mL
76 | B4 | 6.56 µg/mL
77 | B5 | > 10 µg/mL
78 | B6 | > 10 µg/mL
79 | B7 | 2.11 µg/mL
80 | B8 | 3.05 µg/mL
81 | B9 | 0.0536 µg/mL
82 | B10 | 0.0356 µg/mL
83 | B11 | 1.36 µg/mL
84 | B12 | > 10 µg/mL
